Data as given in PubChem BioAssay AID504761 (Drosophila RNAi Screening Center, 2011).

Assay: 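Insect host genes that dengue virus relies on to spread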 (primary screen)
System: D.Mel-2 cells from Drosophila
Reagents: long dsRNA against Drosophila genes
Challenge: infection with dengue virus type 2; dose and infection time not stated
Read-out: 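Cells stained for dengue envelope protein and imaged; percent of infected cells per well on duplicate plates, ranked by infection, with stained nuclei counted for cell number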
Reading the numbers: infection score: higher = more virus-infected cells; cell count: higher = more cells in the well
Call rule: 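Low infection ranks in the two replicates (chance level up to 0.065) followed by a retest with a 1.5-fold or larger significant decrease, p below 0.05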
Meaning of the calls: active = confirmed: knock-down lowers infection; inactive = not picked or not confirmed
The screen tested about 22,000 reagents; this is an unselected part of those that have a named target and a result. In the full data, 116 (0.52%) got an active call. 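Calls depend on retest data that are not deposited; infection was ranked per plate without normalising between plates; the unit of the infection score is not given.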 Raw values vary from plate to plate and are shown uncorrected. Not stated in the record: the amount of reagent, the time to read-out.

The opening 2 entries, ahead of the listing:
gene	PubChem SID	infection score, replicate 1	infection score, replicate 2	cell count, replicate 1	cell count, replicate 2	Call
Pfdn1 (Prefoldin 1)	SID104182117	6.38	5.38	6241	6325	inactive
Pfdn1 (Prefoldin 1)	SID104205168	2.7	2.22	6139	6314	inactive

The listing, from the start:
gene	PubChem SID	infection score, replicate 1	infection score, replicate 2	cell count, replicate 1	cell count, replicate 2	Call
Pfdn1 (Prefoldin 1)	SID104182117	6.38	5.38	6241	6325	inactive
Pfdn1 (Prefoldin 1)	SID104205168	2.7	2.22	6139	6314	inactive
CG11911	SID104180123	8.93	3.96	5837	6614	inactive
CG11911	SID104205837	5.99	5.06	1052	5984	inactive
DEF8 (differentially expressed in FDCP 8 homolog)	SID104189632	9.85	25	5655	5550	inactive
Lamp1	SID104183519		19.1	470	4813	inactive
spt4	SID104187488	9.41	13.6	6131	5909	inactive
CG31788	SID104181422	1.2	2.23	6088	5916	inactive
Iml1 (Increased minichromosome loss 1)	SID104188041	26.1	4.39	4416	706	inactive
CG34393	SID104180211	7.93	17.3	6768	6058	inactive
CG34393	SID104180502	22	4.46	6735	7471	inactive
CG34393	SID104203302	2.61	9.15	6896	5170	inactive
CG34393	SID104205307	4.7	10.5	6623	6129	inactive
hry (hairy)	SID104202606	1.14	5.11	6579	6856	inactive
hry (hairy)	SID104208650	2.3	8.59	6525	5459	inactive
CG31909	SID104201723	0.71	1.46	6516	6707	inactive
CG31909	SID104204822	11.9	14.1	6541	6740	inactive
SerT (Serotonin transporter)	SID104184447	2.51	5.23	6763	1816	inactive
SerT (Serotonin transporter)	SID104207478	14.9	7.11	3470	1561	inactive
CG6431	SID104182748	2.61	4.88	6463	6431	inactive
CG15312	SID104197792	8.6	4.59	5990	6399	inactive
CG15312	SID104205742	12.9	26.2	7232	6065	inactive
CG18467	SID104186550	13.6	11.7	5628	6703	inactive
